Anti-infective test results gathered from many reports (values: NIAID ChemDB through PubChem).

Shared fields: whole-cell or culture tests; agent: Mycobacterium avium

ECn: concentration that inhibits the pathogen or its effect by n%. Blank or dashed fields: not listed here. MIC50, MIC90 and the like: level of inhibition, or share of isolates inhibited. Conditions beyond the fields shown may differ between rows. Two numbers with a dash give a range or band.

SMILES | endpoint | strain or isolate | method | conditions | result
Cc1ccc2nc(SCc3ccncc3)[nH]c2c1 | MIC | MY330/88 |  |  | 125 µM
CC1=C(C)C(=O)c2ccccc2C1=O | MIC | MAC104 |  |  | 100 µg/mL
c1ccc2[nH]c(SCc3ccncc3)nc2c1 | MIC | MY330/88 |  |  | 1000 µM
COc1nc2ccc(Br)cc2cc1[C@@H](c1ccccc1)[C@@](O)(CCN(C)C)c1cccc2ccccc12 | MIC99 |  |  |  | 0.01 µg/mL
CO[C@H]1/C=C/O[C@@]2(C)Oc3c(C)c(O)c4c(O)c(c(/C=N/N5CCN(C)CC5)c(O)c4c3C2=O)NC(=O)/C(C)=C\C=C\[C@H](C)[C@H](O)[C@@H](C)[C@@H](O)[C@@H](C)[C@H](OC(C)=O)[C@@H]1C | MIC50 | clinical sample |  |  | 2 µg/mL
C[C@H]1COc2c(N3CCN(C)CC3)c(F)cc3c(=O)c(C(=O)O)cn1c23 | MBC | N-444 | broth dilution |  | 16 µg/mL
CC[C@H]1OC(=O)[C@H](C)[C@@H](O[C@H]2C[C@@](C)(OC)[C@@H](O)[C@H](C)O2)[C@H](C)[C@@H](O[C@@H]2O[C@H](C)C[C@H](N(C)C)[C@H]2O)[C@](C)(OC)C[C@@H](C)C(=O)[C@H](C)[C@@H](O)[C@]1(C)O | EC50 |  | resazurin |  | >200 µg/mL
CC[C@H]1OC(=O)[C@H](C)[C@@H](O[C@H]2C[C@@](C)(OC)[C@@H](O)[C@H](C)O2)[C@H](C)[C@@H](O[C@@H]2O[C@H](C)C[C@H](N(C)C)[C@H]2O)[C@](C)(OC)C[C@@H](C)C(=O)[C@H](C)[C@@H](O)[C@]1(C)O | MIC | A5 |  |  | 0.25 µg/mL
c1cc(CSc2ncn[nH]2)ccn1 | MIC | MY330/88 |  |  | >1000 µM
CC[C@H]1OC(=O)[C@H](C)[C@@H](O[C@H]2C[C@@](C)(OC)[C@@H](O)[C@H](C)O2)[C@H](C)[C@@H](O[C@@H]2O[C@H](C)C[C@H](N(C)C)[C@H]2O)[C@](C)(OC)C[C@@H](C)C(=O)[C@H](C)[C@@H](O)[C@]1(C)O | MIC | 3351 | broth dilution / radiometric | pH 7.4 | 0.5 µg/mL
CO[C@H]1[C@@H](O)[C@H](n2ccc(=O)[nH]c2=O)O[C@@H]1[C@@H](O[C@H]1OC(C(=O)N[C@H]2CCCCNC2=O)=C[C@H](O)[C@@H]1O)C(N)=O | MIC | HIHJ 1605 |  |  | 8 µg/mL
CCCCCCCCCCCCSC[C@H]1[C@@H](O)[C@H](O)[C@@H](CO)N1Cc1ccccc1 | MIC | 3 to 5 strains |  |  | 64–128 µg/mL
O=[N+]([O-])c1cn2c(n1)OC[C@@H](OCc1ccc(OC(F)(F)F)cc1)C2 | MIC | ATCC 25291 |  |  | 3.12 µg/mL
CC[C@@H](CO)NC[C@@H]1O[C@H](CO)[C@@H](O)[C@@H]1O | MIC | 3 to 5 strains |  |  | >128 µg/mL
CC1CN(c2c(F)c(N)c3c(=O)c(C(=O)O)cn(C4CC4)c3c2F)CCN1C | MIC | RG4 |  |  | 0.25 µg/mL
CCCCCCCCCCO[C@@H]1[C@H](OC)[C@@H]([C@@H](C[C@H]2OC(C(=O)N[C@H]3CCC[C@@H](C)NC3=O)=C[C@H](O)[C@@H]2O)C(N)=O)O[C@H]1n1ccc(=O)[nH]c1=O | MIC | HIHJ 1605 |  |  | 1 µg/mL
CC(C)=CC/C(C)=C/CN1[C@H](CO)[C@@H](O)[C@H](O)[C@@H]1CO | MIC | 3 to 5 strains |  |  | 64 µg/mL
CC[C@@H](CO)NCCN[C@@H](CC)CO | MBC | N-444 | broth dilution |  | 32 µg/mL
CC[C@H]1OC(=O)[C@H](C)[C@@H](O[C@H]2C[C@@](C)(OC)[C@@H](O)[C@H](C)O2)[C@H](C)[C@@H](O[C@@H]2O[C@H](C)C[C@H](N(C)C)[C@H]2O)[C@](C)(OC)C[C@@H](C)C(=O)[C@H](C)[C@@H](O)[C@]1(C)O | MIC90 | 33 isolates |  |  | 8 µg/mL
CC[C@H]1OC(=O)[C@H](C)[C@@H](O[C@H]2C[C@@](C)(OC)[C@@H](O)[C@H](C)O2)[C@H](C)[C@@H](O[C@@H]2O[C@H](C)C[C@H](N(C)C)[C@H]2O)[C@](C)(OC)C[C@@H](C)C(=O)[C@H](C)[C@@H](O)[C@]1(C)O | MIC90 | Clinical isolate |  |  | <4 µg/mL
CCC(CO)NC[C@H]1N[C@@H](CO)[C@@H](O)[C@@H]1O | MIC | 3 to 5 strains |  |  | >128 µg/mL
NCC[C@H](O)C(=O)N[C@@H]1C[C@H](N)[C@@H](O[C@H]2O[C@H](CN)[C@@H](O)[C@H](O)[C@H]2O)[C@H](O)[C@H]1O[C@H]1O[C@H](CO)[C@@H](O)[C@H](N)[C@H]1O | MIC | A5 |  |  | 2 µg/mL
CCOC(=O)N1CCN(c2ccc(C3CC(c4ccc([N+](=O)[O-])o4)=NO3)cc2)CC1 | MIC | ATCC 25291 |  |  | 100 µg/mL
CC[C@@H](CO)NCCN[C@@H](CC)CO | MIC | SMT |  |  | 16 µg/mL
O=C(NCc1ccc(N2CCN(Cc3ccccc3)CC2)nc1)c1ccc([N+](=O)[O-])o1 | MIC | ATCC 25291 |  |  | 100 µg/mL
O=C1C=CC(=O)C=C1 | MBC | MAC104 |  |  | 200 µg/mL
CO[C@H]1/C=C/O[C@@]2(C)Oc3c(C)c(O)c4c(O)c(c(N5CCN(Cc6c(C)cc(C)cc6C)CC5)c(O)c4c3C2=O)NC(=O)/C(C)=C\C=C\[C@H](C)[C@H](O)[C@@H](C)[C@@H](O)[C@@H](C)[C@H](OC(C)=O)[C@@H]1C | MBC | 3337-4 |  |  | >16 µg/mL
c1cncc(CSc2nc3ccccc3o2)c1 | MIC | MY330/88 |  |  | 125 µM
CCCC1=C(CCC)C(=O)c2ccccc2C1=O | MIC | MAC104 |  |  | 400 µg/mL
c1ccc2oc(SCc3ccncc3)nc2c1 | MIC | MY330/88 |  |  | 250 µM
CC(C)N=c1cc2n(-c3ccc(Cl)cc3)c3ccccc3nc-2cc1Nc1ccc(Cl)cc1 | MIC50 | Clinical isolate |  |  | 0.12 µg/mL

A second listing of 3 rows from above:

SMILES,endpoint,strain or isolate,method,conditions,result
C[C@H]1COc2c(N3CCN(C)CC3)c(F)cc3c(=O)c(C(=O)O)cn1c23,MBC,N-444,broth dilution,,16 µg/mL
CC[C@@H](CO)NC[C@@H]1O[C@H](CO)[C@@H](O)[C@@H]1O,MIC,3 to 5 strains,,,>128 µg/mL
CO[C@H]1/C=C/O[C@@]2(C)Oc3c(C)c(O)c4c(O)c(c(N5CCN(Cc6c(C)cc(C)cc6C)CC5)c(O)c4c3C2=O)NC(=O)/C(C)=C\C=C\[C@H](C)[C@H](O)[C@@H](C)[C@@H](O)[C@@H](C)[C@H](OC(C)=O)[C@@H]1C,MBC,3337-4,,,>16 µg/mL